A mixed list of measured activities; the numbers were collected in NIAID ChemDB.

Common to all: whole-cell or culture tests; agent: HIV-1; cell line: MT-4; read-out: EC50

Blank or dashed fields: not listed here. Conditions beyond the fields shown may differ between rows. ECn is the concentration giving n% inhibition of infection, replication or growth. Two numbers with a dash give a range or band.

SMILES,strain or isolate,mutations,read by,setting,result
COCC[C@@]1(C)C(=O)c2c(O)c(=O)c(C(=O)NCc3ccc(F)cc3F)cn2C[C@@H]1OC,NL4-3,-,GFP,100% human serum,0.099 µM
O/C(=C\c1cc(CCc2ccccc2)ncn1)c1ccncc1,IIIB,-,cytopathic effect / MTT,-,>12.5 µg/mL
Cc1cc(C)cc(S(=O)(=O)c2c(C(=O)NS(=O)(=O)c3ccccc3)[nH]c3ccc(Cl)cc23)c1,IIIB,-,MTT,-,1.31 µM
O=C(NCCCCCN1CCCC2=C[C@@H]3C[C@@H](CN4CCCC[C@H]34)[C@@H]21)c1c(F)cc(Br)cc1F,NL4-3,-,luciferase,-,>20 µM
CCCC(C(=O)O)c1c(C)nc2ccc(Cl)cc2c1-c1ccccc1,-,-,MTT,-,2.35 µM
C[C@@]12CCCCC[C@]1(O)Cn1cc(C(=O)NCc3cccc(Cl)c3F)c(=O)c(O)c1C2=O,NL4-3,-,GFP,100% human serum,0.365 µM
Cc1cc(C)cc(S(=O)(=O)c2c(C(=O)NCCP(=O)(O)O)[nH]c3ccc(Cl)cc23)c1,IIIB,-,MTT,-,4.42 µM
CN1CCn2c(nc(C(=O)NCc3ccc(F)c(Cl)c3)c(O)c2=O)C(N(C)C(=O)C(=O)N(C)C)C1,-,-,p24,-,<1 µM
Nc1nc2c(ncn2[C@H]2CO[C@@H](CCP(=O)(O)O)O2)c(=O)[nH]1,-,-,cytopathic effect,-,6.8 µg/mL
O=C(O)/C(O)=C/c1cc(OCc2ccccc2)ncn1,IIIB,-,cytopathic effect / MTT,-,4.4 µM
Nn1c(-c2cccc(Br)c2)n[nH]c1=S,IIIB,-,MTT,-,>75.4 µg/mL
CC(C)CN(C[C@@H](O)[C@H](Cc1ccccc1)NC(=O)O[C@H]1CO[C@H]2OCC[C@H]21)S(=O)(=O)c1ccc(-c2coc(CCC(=O)O)n2)cc1,LAI,-,cytopathic effect / MTT,-,0.063 µM
S=C(Nc1ccc(Cl)cc1)NC1CCN(Cc2ccccc2)CC1,IIIB,-,MTT,-,>18 µM
S=C(NCCc1ccc(Cl)cc1)Nc1nccs1,-,-,cytopathic effect / XTT,-,<10 µg/mL
O=C(O)/C(O)=C/c1ncccc1OCc1ccccc1,IIIB,-,cytopathic effect / MTT,-,>147 µM
CC(C)N1CCn2c(nc(C(=O)NCc3ccc(F)cc3)c(O)c2=O)C(N(C)C(=O)C(=O)N(C)C)C1,-,-,p24,-,<1 µM
CN1C(=O)[C@@H](Cc2ccccc2)NC1=S,-,-,cytopathic effect / XTT,-,>10 µg/mL
CCCS(=O)(=O)NC(=O)c1[nH]c2ccc(Cl)cc2c1S(=O)(=O)c1cc(C)cc(C)c1,-,Y181C,MTT,-,5.51 µM
CC(=O)OC[C@H]1O[C@@H](n2c3c(c(-c4ccc(Cl)cc4)c(C#N)c2=S)Cc2ccccc2-3)[C@H](OC(C)=O)[C@@H](OC(C)=O)[C@H]1OC(C)=O,-,-,cytopathic effect / MTT,-,5.56 µM
O=C(O)/C(O)=C/c1ccc(Oc2ccccc2)cn1,IIIB,-,cytopathic effect / MTT,-,>78 µM
Clc1ccc(-c2nnc3sc(-c4cccs4)nn23)cc1Cl,IIIB,-,MTT,-,>92.7 µg/mL
Nc1nc2c(ncn2[C@@H]2O[C@H](CO)C3OC32)c(=O)[nH]1,-,-,cytopathic effect,-,249 µM
Cc1nc2c(c(C)c(C)n2C(C)C)c(-c2ccc(Cl)cc2)c1C(OC(C)(C)C)C(=O)O,IIIB,-,MTT,-,0.079 µM
Fc1ccccc1NC(=S)NCc1ccco1,IIIB,-,MTT,-,>100 µM
COc1ccccc1NC(=O)c1cccnc1Sc1ccc([N+](=O)[O-])cc1,LAI,-,-,-,>50 µM
CCOCn1c(Cc2ccccc2)c(C(C)C)c(=O)[nH]c1=O,IIIB,RT-K103N Y181C,cytopathic effect / MTT,-,>100 µM
COc1ccccc1NC(=O)c1ccccc1S(=O)(=O)c1ccc([N+](=O)[O-])cc1.C[N+](C)(C)CCO,LAI,-,-,-,>50 µM
CC(=O)N(Cc1ccccc1)C1CN(C)CCn2c1nc(C(=O)NCc1ccc(F)cc1)c(O)c2=O,-,-,p24,-,<1 µM
O=C(NCCc1ccccc1)Nc1nc(C(F)(F)F)cs1,-,-,RT activity,-,<1 µg/mL
Clc1ccc(-c2nnc3sc(-c4cnccn4)nn23)cc1Cl,IIIB,-,MTT,-,>2.11 µg/mL
Cc1ccc(NC(=S)NC2CCN(Cc3ccccc3)CC2)cc1Cl,IIIB,-,MTT,-,>11.6 µM
Nc1ccn([C@H]2CC[C@@H](CO)O2)c(=O)n1,-,-,cytopathic effect,-,0.5 µM
Cc1nc2c(c(C)c(C)n2CC2CCCC2)c(-c2ccc(Cl)cc2)c1[C@H](OC(C)(C)C)C(=O)O,IIIB,-,MTT,-,0.1449 µM
CC1=C[C@H](Cn2cnc3c(=O)[nH]c(N)nc32)C[C@@H]1CO,IIIB,-,MTT,-,>100 µg/mL
Cc1nc2c(c(C)c(C)n2CCN(C)C)c(-c2ccc(Cl)cc2)c1[C@H](OC(C)(C)C)C(=O)O,IIIB,-,MTT,-,0.09046 µM
O=C(NCCCCN1CCCC2=C[C@@H]3C[C@@H](CN4CCCC[C@H]34)[C@@H]21)C1(c2ccc(OC(F)(F)F)cc2)CC1,NL4-3,-,luciferase,-,3.95 µM
CC(C)CN(C[C@@H](O)[C@H](Cc1ccccc1)NC(=O)O[C@H]1CO[C@H]2OCC[C@H]21)S(=O)(=O)c1ccc(-c2ccncc2)cc1,LAI,-,cytopathic effect / MTT,-,0.02 µM
O=C1NC(=S)N[C@@H]1Cc1ccc(O)cc1,-,-,cytopathic effect / XTT,-,>10 µg/mL
CNc1nc(-c2ccc(S(=O)(=O)N(CC(C)C)C[C@@H](O)[C@H](Cc3ccccc3)NC(=O)COc3c(C)cccc3C)cc2)c(Br)s1,LAI,-,cytopathic effect / MTT,-,5.012 µM
O=C(NCCCCCCN1CCCC2=C[C@@H]3C[C@@H](CN4CCCC[C@H]34)[C@@H]21)c1ccc(C(F)(F)F)cc1,NL4-3,-,luciferase,-,3.97 µM
CC(=O)N1C(=O)[C@@H](c2ccccc2)NC1=S,-,-,cytopathic effect / XTT,-,>10 µg/mL
Clc1ccc(-c2nnc3sc(-c4ccc[nH]4)nn23)cc1Cl,IIIB,-,MTT,-,>68.48 µg/mL
O=C(NCCN1CCCC2=C[C@@H]3C[C@@H](CN4CCCC[C@H]34)[C@@H]21)c1ccc(OC(F)(F)F)cc1,NL4-3,-,luciferase,-,>25 µM
Cc1cc(C(C)(O)c2ccc(C(C)(C)C)cc2)nc(Nc2ccc(C#N)cc2)n1,IRLL98,-,MTT,-,7.206 µM
COc1cccc(-c2nc(-c3ccc(S(=O)(=O)N(CC(C)C)C[C@@H](O)[C@H](Cc4ccccc4)NC(=O)O[C@H]4CO[C@H]5OCC[C@H]54)cc3)co2)c1,-,PR-L010F M046I M071V I084V,cytopathic effect / MTT,-,0.77 µM
Cc1cc(C(C)(O)c2ccc(F)cc2)nc(Nc2ccc(C#N)cc2)n1,IRLL98,-,MTT,-,>61.5 µM
CCOc1ccccc1CCNC(=S)Nc1nccs1,-,-,cytopathic effect / XTT,-,<1 µg/mL
O=C(O)C(=O)/C=C(\O)c1cn(S(=O)(=O)c2ccccc2)c2ccc(Cl)cc12,IIIB,-,cytopathic effect / MTT,-,6 µM
Cc1cc2ncc(=O)n(CC(O)CO)c2cc1C,-,-,MTT,-,0.15 µg/mL
CN(C)CC1c2nc(C(=O)NCc3ccc(F)cc3)c(O)c(=O)n2CCN1C,-,-,p24,-,1–10 µM
Nc1ccc(-c2nn3c(-c4ccc(Cl)c(Cl)c4)nnc3s2)cc1,IIIB,-,MTT,-,>19.61 µg/mL
CN1CCN(C(=O)CN2CCn3c(nc(C(=O)NCc4ccc(F)cc4)c(O)c3=O)C2(C)C)CC1,-,-,p24,-,<1 µM
COC(=O)C(=O)c1csc(NC(=O)NCCc2ccccc2)n1,-,-,cytopathic effect / XTT,-,>100 µg/mL
O=C(NCCN1CCCC2=C[C@@H]3C[C@@H](CN4CCCC[C@H]34)[C@@H]21)c1cccc(F)c1,NL4-3,-,luciferase,-,>25 µM
COCC[C@]1(C)C(=O)c2c(O)c(=O)c(C(=O)NCc3ccc(F)cc3F)cn2C[C@@H]1OC,NL4-3,-,GFP,100% human serum,0.032 µM
Cc1cc(C)cc(S(=O)(=O)c2c(C(=O)NS(=O)(=O)C(F)(F)F)[nH]c3ccc(Cl)cc23)c1,-,Y181C,MTT,-,45.79 µM
O/C(=C\c1cc(CCc2ccccc2)ncn1)c1ccccn1,IIIB,-,cytopathic effect / MTT,-,>12.5 µg/mL
Cc1cc(C)cc(S(=O)(=O)c2c(C(=O)NCCn3ccc(=O)[nH]c3=O)[nH]c3ccc(Cl)cc23)c1,RES056,-,MTT,-,>9.44 µM
COc1ccccc1NC(=O)c1ccccc1S(=O)(=O)c1ccc([N+](=O)[O-])cc1,LAI,-,-,-,>50 µM
CC1=C[C@H](Cn2cnc3c(NC4CC4)nc(N)nc32)C[C@@H]1CO,IIIB,-,MTT,-,>100 µg/mL
Nn1c(-c2ccc(O)c(Cl)c2Cl)n[nH]c1=S,IIIB,-,MTT,-,>72.83 µg/mL
CCOc1c(Cl)cc(F)c(CCNC(=S)Nc2ccc(Br)cn2)c1Cl,IIIB,RT-L100I,cytopathic effect / XTT,-,1 µM
Cc1cc(C)cc(S(=O)(=O)c2c(C(=O)NS(=O)(=O)c3ccc(F)cc3F)[nH]c3ccc(Cl)cc23)c1,-,L100I,MTT,-,2.17 µM
S=C(NCc1ccco1)Nc1ccc(Cl)c(Cl)c1,IIIB,-,MTT,-,>35.7 µM
CCn1c(C)c(C)c2c(-c3ccc(C)cc3)c(C(OC(C)(C)C)C(=O)O)c(C)nc21,IIIB,-,MTT,-,0.0269 µM
Cc1cn([C@H]2C=C[C@@H](CCP(=O)(O)O)O2)c(=O)[nH]c1=O,-,-,-,-,>1000 µM
O=C(NCCc1ccccc1)Nc1nc2c(Cl)cccc2s1,-,-,RT activity,-,>10 µg/mL
O=C(O)/C(O)=C/c1cc(CCc2ccccc2)ccn1,IIIB,-,cytopathic effect / MTT,-,>74 µM
C=C(c1cc(C)cc(C)c1)c1c(CC)c(=O)[nH]c(=O)n1COC/C(C)=C/c1ccccc1,IIIB,RT-K103N Y181C,cytopathic effect / MTT,-,>100 µM
O=C(O)c1cc(NS(=O)(=O)c2ccc(-c3ccc(S(=O)(=O)Nc4cc(C(=O)O)c(O)c(S(=O)(=O)O)c4)cc3)cc2)cc(S(=O)(=O)O)c1O,IIIB,-,syncytia,-,<100 µM
S=C(Nc1ccccc1Cl)NC1CCN(Cc2ccccc2)CC1,IIIB,-,MTT,-,>56 µM
CCOc1ccc(F)c(CCNC(=S)Nc2ncc(C(F)(F)F)s2)c1Cl,IIIB,RT-Y181C,cytopathic effect / XTT,-,>2 µM
Nc1cc(O)ccc1-c1nnc2sc(-c3cc4ccccc4oc3=O)nn12,IIIB,-,MTT,-,>108.3 µg/mL
COc1ccccc1NC(=O)c1ccccc1Sc1ccc(C(=O)O)cc1.C[N+](C)(C)CO,LAI,-,-,-,>50 µM
O=C(NCc1ccc(F)cc1F)c1cn2c(c(O)c1=O)C(=O)N1C3CCC(C3)OC1C2,NL4-3,-,GFP,100% human serum,0.466 µM
C=C(c1cc(C)cc(C)c1)c1c(CC)c(=O)[nH]c(=O)n1COCC,IIIB,-,cytopathic effect / MTT,-,0.035 µM
S=C(NCc1ccco1)Nc1ccccc1Cl,IIIB,-,MTT,-,≥100 µM
Cc1cn([C@H]2C=C[C@@H](OCP(=O)(O)O)C2)c(=O)[nH]c1=O,-,-,-,-,>1000 µM
CC(=O)Nc1ncc(-c2ccc(S(=O)(=O)N(CC(C)C)C[C@@H](O)[C@H](Cc3ccccc3)NC(=O)O[C@H]3CO[C@H]4OCC[C@H]43)cc2)[nH]1,LAI,-,cytopathic effect / MTT,-,0.02 µM
CCc1nnc(NC(=O)NCCc2ccccc2)s1,-,-,cytopathic effect / XTT,-,>100 µg/mL
O=C(NCCCCN1CCCC2=C[C@@H]3C[C@@H](CN4CCCC[C@H]34)[C@@H]21)c1ccc(OC(F)(F)F)cc1,NL4-3,-,luciferase,-,1.12 µM